# Earlier results in patent US6015808A, “Synthesis of pharmaceutical compositions with lactams and β-lactams/oxo thia azabicyclo compounds” (priority 1995, dated 2000).
# System: MAC strain 101 in mouse peritoneal macrophages or J774-A cell lines
# Details: cited from earlier work
smiles,measurement,value
NCC[C@H](O)C(=O)N[C@@H]1C[C@H](N)[C@@H](O[C@H]2O[C@H](CN)[C@@H](O)[C@H](O)[C@H]2O)[C@H](O)[C@H]1O[C@H]1O[C@H](CO)[C@@H](O)[C@H](N)[C@H]1O [amikacin],activity against MAC inside macrophages (earlier studies),did not exhibit any activity against MAC inside macrophages
